Results reported in patent US8299031B2, “Human semen enhancer of viral infection peptides (SEVI) and their use” (Viro Pharmaceuticals GmbH & Co. KG, priority 2006, dated 2012).

Assays:
[1] = system: X4 tropic NL4-3 Luc and R5 tropic 005pf103 Luc; test: HIV-1 infection of macrophages (luciferase); conditions: 3 days
[2] = system: HIV-1 Env mediated cell-cell fusion; test: HIV-1 Env mediated cell-cell fusion assay (293T / CEMX174 5.25 M7); conditions: 10 μg/ml compared with 0 μg/ml, one day
[3] = system: R5 tropic HIV-1 005-pf-103; test: Infection of PBMC with R5 tropic HIV-1 (luciferase)
[4] = system: X4 tropic HIV-1 NL4-3 Luc; test: Infection of PBMC with X4 tropic HIV-1 (luciferase)
[5] = system: X4-tropic HIV-1 NL4-3 and R5 tropic HIV-1 YU2; test: Correlation of SEVI mediated increase with absolute viral infectivities in TZM-bl cells; assay type: cell-based; conditions: 10 μg/ml SEVI, decreasing p24 concentrations

Sequence	effect on HIV-1 infection of macrophages [1]	fusion activity (luciferase activities) [2]	luciferase activities increased compared to control samples containing no peptide ([3]; 10 μg/ml SEVI, 1 ng p24 antigen, PBMC) [fold]	luciferase activities ([3]; 10 μg/ml SEVI, 1 ng p24 antigen, PBMC, 3 days)	effect on infection of PBMC ([3]; R5 tropic virus, 3 days)	luciferase activities increased compared to control samples containing no peptide ([4]; 10 μg/ml SEVI, 10 ng p24 antigen, PBMC) [fold]	luciferase activities ([4]; 10 μg/ml SEVI, 10 ng p24 antigen, PBMC, 3 days)	effect on infection of PBMC ([4]; X4 tropic virus, 3 days)	relation of x-fold increase of infection to absolute infectivities without peptide [5]
GIHKQKEKSRLQGGVLVNEILNHMKRATQIPSYKKLIMY (Synthetic fragment of the PAP protein) [PAP(248-286)]	enhanced HIV-1 infection of macrophages independently of the coreceptor used	no increase in fusion activity could be observed	34	28,520 RLU/s	dose dependently promoted infection of PBMC	28	589,840 RLU/s	dose dependently promoted infection of PBMC	–
KQKEKSRLQGGVLVNEILNHMKRATQIPSYKKLIMY (Synthetic fragment of the PAP protein) [PAP(251-286)]	–	–	–	–	–	–	–	–	The higher the absolute infection rates were, the lower was the effect on SEVI mediated enhancement of infection
